Anti-infective test results gathered from many reports (values: NIAID ChemDB through PubChem).

Shared fields: tests in culture; organism: Varicella zoster virus; cell line: HFF; endpoint: EC50

Blank or dashed fields: not listed here. ECn is the concentration giving n% inhibition of infection, replication or growth. Neighbouring rows are from separate reports.

| structure | strain or isolate | method | value |
|---|---|---|---|
| COC(=O)[C@H](C)NP(=O)(OC[C@H]1C/C1=C/n1cnc2c(N)nc(N)nc21)Oc1ccccc1 | - | - | 1 µM |
| COc1cc(OC)c(NC(=S)Nc2ccc(NC(=O)c3ccco3)cc2)cc1Cl | ELLEN | - | >20 µM |
| CN1C=CCC(C(=O)O[C@H]2C[C@H](n3cc(I)c(=O)[nH]c3=O)O[C@@H]2CO)=C1 | - | cytopathic effect | 35.8 µM |
| CN1CCN(n2cc(C(=O)NCc3ccc(Cl)cc3)c(=O)c3cc(CN4CCOCC4)ccc32)CC1 | Webster | plaque count | 0.8 µM |
| COC(=O)[C@H](C)NP(=O)(OCC1C/C1=C/n1cnc2c(N)ncnc21)Oc1ccccc1 | - | cytopathic effect | 7.6 µM |
| Cn1cc(C(=O)NCc2ccc(Cl)cc2)c(=O)c2cc(CN3CCOCC3)ccc21 | - | plaque count | 0.1 µM |
| Cc1cn([C@@H]2O[C@H](CO)[C@H]2CO)c(=O)[nH]c1=O | V8908 (TK-) | plaque count | 3 µg/mL |
| COC(=O)C(C)NP(=O)(OC[C@@H]1C/C1=C/n1cc(C)c(=O)[nH]c1=O)Oc1ccccc1 | - | plaque count | 69.3 µM |
| Nc1ncnc2c1ncn2/C=C1/CC1(CO)CO | - | cytopathic effect | >380 µM |
| CC(C)Nc1nc(N)nc2c1ncn2/C=C1/C[C@@H]1CO | - | plaque count | >365 µM |
| COc1cc(OC)c(NC(=S)Nc2ccc(NC(=O)c3ccco3)cn2)cc1Cl | ELLEN | ELISA | >10 µg/mL |
| C#CCNc1nc(N)nc2c1ncn2/C=C1/C[C@@H]1CO | - | cytopathic effect | >74 µM |
| COc1cc(OC)c(NC(=S)Nc2ccc(NC(=O)c3cccc(NS(C)(=O)=O)c3)cc2)cc1Cl | ELLEN | ELISA | >10 µg/mL |
| COC(=O)[C@H](C)NP(=O)(OC[C@H]1C/C1=C/n1cnc2c(OC)nc(N)nc21)Oc1ccccc1 | - | - | 0.12 µM |
| Nc1ncnc2c1ncn2[C@@H]1C[C@H](NC=O)[C@@H](O)[C@H]1O | - | - | >100 µg/mL |
| CC(C)[C@H](N)C(=O)N[C@H](C(=O)OCC(COC(=O)[C@@H](NC(=O)[C@@H](N)C(C)C)C(C)C)OCn1cnc2c(=O)[nH]c(N)nc21)C(C)C | - | plaque count | 18.4 µM |
| Nc1nc2c(ncn2C=C2CC2CO)c(=O)[nH]1 | - | - | 61 µM |
| Nc1nc2c(ncn2/C=C2/CC2(CO)CO)c(=O)[nH]1 | ELLEN | plaque count | >380 µM |
| CCCCCSc1nc(N)nc2c1ncn2/C=C1/C[C@@H]1CO | - | cytopathic effect | 2.3 µM |
| Nc1nc(NCc2ccccc2)c2ncn(/C=C3/C[C@@H]3CO)c2n1 | - | plaque count | >62 µM |
| CCCCCOc1nc(N)nc2c1ncn2/C=C1/C[C@@H]1CO | - | cytopathic effect | >65.9 µM |
| COC(=O)C(C)NP(=O)(OC[C@@H]1C/C1=C/n1cc(N)c(=O)[nH]c1=O)Oc1ccccc1 | - | plaque count | 56.2 µM |
| C#CCNc1nc(N)nc2c1ncn2/C=C1/C[C@@H]1CO | - | plaque count | >74 µM |
| Nc1nc(OCC2CC2)c2ncn(/C=C3/C[C@@H]3CO)c2n1 | - | cytopathic effect | 0.5 µM |
| CC(NC(=S)Nc1ccc(NC(=O)c2ccccc2F)cc1C#N)c1ccc(F)cc1 | ELLEN | ELISA | 0.05 µg/mL |
| Nc1nc(OCC2CC2)c2ncn(/C=C3/C[C@@H]3CO)c2n1 | - | plaque count | 8.4 µM |
| C=Cc1cn([C@H]2C[C@H](OC(=O)C3=CN(C)C=CC3)[C@@H](CO)O2)c(=O)[nH]c1=O | - | cytopathic effect | 8.5 µM |
| COc1ccccc1C(=O)Nc1ccc(NC(=S)NCCc2cc3ccccc3o2)cc1 | ELLEN | ELISA | 0.09 µg/mL |
| C=CCN(c1ccc(NC(=S)Nc2ccc(NC(C)=O)cc2)cc1Cl)C1CCCCC1 | ELLEN | ELISA | >10 µg/mL |
| Nc1nc2c(ncn2COC(CO)CO)c(=O)[nH]1 | - | plaque count | 19 µM |
| Nc1nc(N)c2ncn(C=C3CC3CO)c2n1 | - | - | 93 µM |
| COc1cc(OC)c(NC(=S)Nc2ccc(NC(C)=O)cc2)cc1Cl | ELLEN | ELISA | >10 µg/mL |
| C[C@H](NC(=S)Nc1ccc(NC(=O)c2csnn2)cn1)c1cc(C(F)(F)F)cc(C(F)(F)F)c1 | ELLEN | ELISA | >7.5 µg/mL |
| COc1cc(OC)c(NC(=S)Nc2ccc(NC(=O)c3ccccc3Br)cc2)cc1Cl | ELLEN | ELISA | >10 µg/mL |
| COc1cc(NC(=O)c2ccccc2F)cc(C)c1NC(=S)NC(C)c1ccc(F)cc1 | ELLEN | ELISA | 0.7 µg/mL |
| CC(C)[C@H](N)C(=O)NCC(=O)OCC(COC(=O)CNC(=O)[C@@H](N)C(C)C)OCn1cnc2c(=O)[nH]c(N)nc21 | - | plaque count | 4.3 µM |
| COc1cc(OC)c(NC(=S)Nc2ccc(NC=O)cc2Cl)cc1Cl | ELLEN | ELISA | >10 µg/mL |
| CCN(CC)CC(=O)Nc1ccc(NC(=S)Nc2ccc(NC(C)=O)cc2)cc1Cl | ELLEN | ELISA | >10 µg/mL |
| Cn1cc(C(=O)NCc2ccc(Cl)cc2)c(=O)c2cc(CN3CCOCC3)ccc21 | Varicella isolate RN | plaque count | 0.2 µM |
| Nc1cn(C=C2C[C@H]2CO)c(=O)[nH]c1=O | - | plaque count | >518 µM |
| C=Cc1cn([C@H]2C[C@H](O)[C@@H](CO)O2)c(=O)[nH]c1=O | - | cytopathic effect | 2.7 µM |
| Nc1nc(NCCO)c2ncn(/C=C3/C[C@@H]3CO)c2n1 | - | plaque count | >60 µM |

The last 3 rows once more:

structure | strain or isolate | method | value
Nc1cn(C=C2C[C@H]2CO)c(=O)[nH]c1=O | - | plaque count | >518 µM
C=Cc1cn([C@H]2C[C@H](O)[C@@H](CO)O2)c(=O)[nH]c1=O | - | cytopathic effect | 2.7 µM
Nc1nc(NCCO)c2ncn(/C=C3/C[C@@H]3CO)c2n1 | - | plaque count | >60 µM